This note sets out measurements from patent US7691818B2 (Universita' Degli Studi Di Treiste, priority 2004, dated 2010).

The data set is described as follows: general procedure: solution-phase peptide synthesis; PyBOP/HOBT/collidine.

Consider “NH-Ac-Ser-Leu-Asn-Phe-[φ]-Pro-Ile-Val-NH-Ac”, for which the isolated yield (whole synthesis) worked out at 12%.
The substance NH-Ac-Trp-Val-Phe-[φ]-Pro-Val-Trp-NH-Ac had a step yield (coupling step) of 50%.
